Measurements: publication PMC11944514, “Dengue Virus Inhibitors as Potential Broad-Spectrum Flavivirus Inhibitors” (Pharmaceuticals, 2025)

Columns and labels:
[1] = system: KUNV-Nanoluc; type: cell-based; details: ratio CC50 / EC50
[2] = system: DENV2-Nanoluc; type: cell-based

Structure (SMILES)	KUNV SI [1]	fold difference of EC50 against DENV2 in Vero E6 versus reported EC50 in BHK-21 [2]
O[C@H]1[C@H]2c3cc4c(cc3CN3CCC(=C[C@@H]1O)[C@H]23)OCO4 [Compound C1, (1S,17S,18S,19S)-5,7-dioxa-12-azapentacyclo[10.6.1.0^2,^10.0^4,^8.0^15,^19]nonadeca-2(10),3,8,15-tetraene-17,18-diol]	7.6	–
CC(C)(C)Oc1cccc2nc(N)nc(N)c12 [Compound C2, 5-(tert-butoxy)quinazoline-2,4-diamine]	1.2	–
COc1c(C)c2c(c(O)c1CC=C(C)CCC(=O)O)C(=O)OC2 [Compound C3, 6-(4-hydroxy-6-methoxy-7-methyl-3-oxo-1,3-dihydro-2-benzofuran-5-yl)-4-methylhex-4-enoic acid]	>23	–
O=[N+]([O-])c1c(Nc2ccccc2O)cc(Cl)c2nonc12 [Compound C5, 2-[(7-chloro-4-nitro-2,1,3-benzoxadiazol-5-yl)amino]phenol]	1.4	–
CN1C(=O)C2(CC(=O)Nc3c2cnn3Cc2ccc(Cl)cc2)c2cc(Cl)ccc21 (stereo not drawn) [Compound C6, 5-chloro-1′-[(4-chlorophenyl)methyl]-1-methyl-1,1′,2,5′,6′,7′-hexahydrospiro[indole-3,4′-pyrazolo[3,4-b]pyridine]-2,6′-dione]	2.4	approximately 600 fold
